Measured values from several laboratories, pooled; numbers as filed in NIAID ChemDB.

All rows: cytotoxicity tests; cell line: C8166; measure: CC50

Neighbouring rows are from separate reports.

smiles | result
O=c1ccn([C@@H]2O[C@H](CO)C=C2F)c(=O)[nH]1 | >100 µM
CCOP(=O)(N[C@@H](C)C(=O)OC)OC[C@H]1O[C@@H](n2cc(C)c(=O)[nH]c2=O)C[C@@H]1N=[N+]=[N-] | >100 µM
CCN(CC)P(=O)(OC[C@H]1O[C@@H](n2cc(C)c(=O)[nH]c2=O)C[C@@H]1N=[N+]=[N-])N(CC)CC | >100 µM
CO[C@H]1C[C@H](n2cc(C)c(=O)[nH]c2=O)O[C@@H]1COP(=O)(OC[C@H]1O[C@@H](n2cc(C)c(=O)[nH]c2=O)C[C@@H]1OC)OCC(Cl)(Cl)Cl | 1000 µM
CCN1c2ncc(CCc3ccncc3)cc2C(=O)N(C)c2ccc(Cl)nc21 | >60 µM
CCCCCCOC(=O)[C@H](C)NP(=O)(OC[C@H]1O[C@@H](n2cc(C)c(=O)[nH]c2=O)C[C@@H]1N=[N+]=[N-])OCC(Cl)(Cl)Cl | >100 µM
COC(=O)[C@H](Cc1ccccc1)NP(=O)(OC)C(Cc1ccccc1)NC(=O)OCc1ccccc1 | 100 µM
Nc1cc2c(=O)c(C(=O)O)cn(N3CCN(c4ccccn4)CC3)c2cc1Cl | >1000 µM
CC(=O)O[C@H]1C[C@H](n2cc(C)c(=O)[nH]c2=O)O[C@@H]1COP(=O)(OCC(Cl)Cl)OC[C@H]1O[C@@H](n2cc(C)c(=O)[nH]c2=O)C[C@@H]1OC(C)=O | 1000 µM
Cc1cn([C@H]2C=C[C@@H](COC(=O)CC3(C)C[C@](C)(O)CO3)O2)c(=O)[nH]c1=O | >500 µM
CCOP(=O)(OCC)OC[C@H]1O[C@@H](n2cc(C)c(=O)[nH]c2=O)C[C@@H]1N=[N+]=[N-] | >100 µM
CCOC(=O)COP(=O)([O-])OCC[NH2+]C | >100 µM
CCOP(=O)(N[C@@H](CC(C)C)C(=O)OC)OC[C@H]1O[C@@H](n2cc(C)c(=O)[nH]c2=O)C[C@@H]1N=[N+]=[N-] | >100 µM
CCCCOP(=O)(OCCCC)OC[C@H]1O[C@@H](n2cc(C)c(=O)[nH]c2=O)C[C@@H]1OS(C)(=O)=O | >100 µM
CCCCCCCCCCCCOP(=O)(OCC(=O)OCC)OC[C@H]1O[C@@H](n2cc(C)c(=O)[nH]c2=O)C[C@@H]1N=[N+]=[N-] | 75 µM
COC(=O)[C@@H](NP(=O)(OC)OC[C@H]1O[C@@H](n2cc(C)c(=O)[nH]c2=O)C[C@@H]1N=[N+]=[N-])C(C)C | >100 µM
COC(=O)[C@H](C)NP(=O)(OC[C@H]1O[C@@H](n2cc(C)c(=O)[nH]c2=O)C[C@@H]1N=[N+]=[N-])OCC(Cl)(Cl)Cl | >100 µM
O=c1nc(-n2cncn2)ccn1[C@@H]1O[C@H](CO)[C@@H](O)[C@H]1O | 400 µM
Cc1cn([C@H]2C=C[C@@H](CO)O2)c(=O)[nH]c1=O | 400 µM
CC(=O)OC[C@H]1O[C@@H](n2ccc(Oc3c(F)c(F)c(F)c(F)c3F)nc2=O)C[C@@H]1OC(C)=O | 100 µM
COC(=O)C(C)OP(=O)(OC)OC[C@H]1O[C@@H](n2cc(C)c(=O)[nH]c2=O)C[C@@H]1N=[N+]=[N-] | >100 µM
CCOP(=O)(N[C@H](C(=O)OC)[C@@H](C)CC)OC[C@H]1O[C@@H](n2cc(C)c(=O)[nH]c2=O)C[C@@H]1N=[N+]=[N-] | >100 µM
CCO[C@H]1C[C@H](n2cc(C)c(=O)[nH]c2=O)O[C@@H]1COP(=O)(OC[C@H]1O[C@@H](n2cc(C)c(=O)[nH]c2=O)C[C@@H]1OCC)OCC(F)(F)F | >1000 µM
Cc1ccc(C(O)c2cn(C)c(=O)n(C)c2=O)o1 | 800 µM
CCOP(=O)(N[C@@H](C)C(=O)OC)OC[C@H]1O[C@@H](n2cc(C)c(=O)[nH]c2=O)C[C@@H]1N=[N+]=[N-] | >100 µM
CCCOP(=O)(OCCC)OC[C@H]1O[C@@H](n2cc(C)c(=O)[nH]c2=O)C[C@@H]1OC(C)=O | >100 µM
O=C(O)c1cn(Cc2ccccc2)c2ccc(Cc3cccc(Cl)c3F)c(O)c2c1=O | 15.9 µM
CC(=O)OC[C@H]1O[C@@H](n2cc(C)c(-n3cncn3)nc2=O)C[C@@H]1OC(C)=O | 80 µM
COC(=O)[C@H](C)NP(=O)(OC[C@H]1O[C@@H](n2cc(C)c(=O)[nH]c2=O)C[C@@H]1N=[N+]=[N-])Oc1ccccc1 | >100 µM
CCC(C)[C@H](NC(=O)[C@@H]1CCCN1[P@@](=O)(OC)[C@H](Cc1ccccc1)NC(=O)[C@H](CC(N)=O)NC(=O)OC(C)(C)C)C(=O)NCC(C)C | 30 µM
Cc1ccc(C(O)c2cc(=O)n(C)c(=O)n2C)o1 | 400 µM
CC[C@H](C)[C@H](NC(=O)[C@@H](Cc1ccccc1)NP(=O)(OC)C(Cc1ccccc1)NC(=O)[C@@H](CC(N)=O)NC(=O)c1ccc2ccccc2n1)C(=O)NCC(C)C | 45 µM
CCCCOP(=O)(OCCCC)OC[C@H]1O[C@@H](n2cc(C)c(=O)[nH]c2=O)C[C@@H]1OC(C)=O | >100 µM
Cc1cn([C@H]2C[C@H](N=[N+]=[N-])[C@@H](COP(=O)(N[C@@H](C)C(=O)OCc3ccccc3)Oc3ccccc3)O2)c(=O)[nH]c1=O | >100 µM
CCCOP(=O)(N[C@H](C(=O)OC)C(C)C)OC[C@H]1O[C@@H](n2cc(C)c(=O)[nH]c2=O)C[C@@H]1N=[N+]=[N-] | >100 µM
CCCCCCOP(=O)([O-])OCC[NH2+]C | >100 µM
CN1C(=O)/C(=C/c2ccco2)C(O)N(C)C1=O | 800 µM
CCCO[C@H]1C[C@H](n2cc(C)c(=O)[nH]c2=O)O[C@@H]1CO | >1000 µM
CCN1c2ncc(CCc3cccc(NC(N)=O)c3)cc2C(=O)N(C)c2ccc(Cl)nc21 | >60 µM
CC[C@H](C)[C@H](NC(=O)[C@H](Cc1ccccc1)NP(=O)(OC)C(Cc1ccccc1)NC(=O)OCc1ccccc1)C(=O)NCC(C)C | 1 µM
CCOP(=O)(OCC)OC[C@H]1O[C@@H](n2cc(C)c(=O)[nH]c2=O)C[C@@H]1OS(C)(=O)=O | >100 µM
CCO[C@H]1C[C@H](n2cc(C)c(=O)[nH]c2=O)O[C@@H]1COP(=O)(OC[C@H]1O[C@@H](n2cc(C)c(=O)[nH]c2=O)C[C@@H]1OCC)Oc1ccccc1 | 750 µM
CC[C@H](C)[C@H](NC(=O)[C@@H](Cc1ccccc1)NP(=O)(OC)C(CC1CCCCC1)NC(=O)OCc1ccccc1)C(=O)NCC(C)C | 2 µM
O=c1nc(Oc2c(F)c(F)c(F)c(F)c2F)ccn1[C@@H]1O[C@H](CO)[C@@H](O)[C@H]1O | 200 µM
CC[C@H](C)[C@H](NC(=O)[C@@H](Cc1ccccc1)NP(=O)(OC)C(Cc1ccccc1)NC(=O)C(CC(N)=O)NC(=O)OC(C)(C)C)C(=O)NCC(C)C | 100 µM
COC(=O)[C@H](Cc1ccccc1)NP(=O)(N[C@@H](Cc1ccccc1)C(=O)OC)OC[C@H]1O[C@@H](n2cc(C)c(=O)[nH]c2=O)C[C@@H]1N=[N+]=[N-] | >100 µM
O=C(/C=C/c1ccc(O)cc1)OC[C@@H]1OC(Oc2ccc(C(=O)/C=C/c3ccc(O)c(O)c3)c(O)c2O)[C@@H](O)[C@H](O)[C@H]1O | 250 µM

Again, the opening 3 rows:

smiles,result
O=c1ccn([C@@H]2O[C@H](CO)C=C2F)c(=O)[nH]1,>100 µM
CCOP(=O)(N[C@@H](C)C(=O)OC)OC[C@H]1O[C@@H](n2cc(C)c(=O)[nH]c2=O)C[C@@H]1N=[N+]=[N-],>100 µM
CCN(CC)P(=O)(OC[C@H]1O[C@@H](n2cc(C)c(=O)[nH]c2=O)C[C@@H]1N=[N+]=[N-])N(CC)CC,>100 µM

CCn is the concentration with n% toxicity to the cells.